From patent publication US20220348635A1, “COMPOSITIONS AND METHODS FOR NEUROLOGICAL DISEASES” (Coda Biotherapeutics, Inc., priority 2019, published 2022)

Experiments:
Assay in all cases: flow cytometry, labelled α-bungarotoxin on transfected HEK293T cells
[1] = target: T1, engineered receptor L131S, S172D in SEQ ID NO: 33 (human (chimera of human α7-nAChR ligand …))
T1 chain: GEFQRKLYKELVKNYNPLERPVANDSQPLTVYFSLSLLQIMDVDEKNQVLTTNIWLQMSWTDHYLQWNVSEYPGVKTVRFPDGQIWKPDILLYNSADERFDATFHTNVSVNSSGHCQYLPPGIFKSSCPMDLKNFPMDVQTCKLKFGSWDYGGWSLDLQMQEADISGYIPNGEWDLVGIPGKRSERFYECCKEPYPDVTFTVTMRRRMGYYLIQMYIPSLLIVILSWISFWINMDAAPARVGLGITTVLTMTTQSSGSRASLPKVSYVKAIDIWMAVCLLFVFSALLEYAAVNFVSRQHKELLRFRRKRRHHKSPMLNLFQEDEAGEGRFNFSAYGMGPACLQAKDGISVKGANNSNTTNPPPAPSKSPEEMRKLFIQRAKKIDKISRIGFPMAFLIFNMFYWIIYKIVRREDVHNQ

[2] = target: T2, engineered receptor Y115D, L131E in SEQ ID NO: 33 (human (chimera of human α7-nAChR ligand …))
T2 chain: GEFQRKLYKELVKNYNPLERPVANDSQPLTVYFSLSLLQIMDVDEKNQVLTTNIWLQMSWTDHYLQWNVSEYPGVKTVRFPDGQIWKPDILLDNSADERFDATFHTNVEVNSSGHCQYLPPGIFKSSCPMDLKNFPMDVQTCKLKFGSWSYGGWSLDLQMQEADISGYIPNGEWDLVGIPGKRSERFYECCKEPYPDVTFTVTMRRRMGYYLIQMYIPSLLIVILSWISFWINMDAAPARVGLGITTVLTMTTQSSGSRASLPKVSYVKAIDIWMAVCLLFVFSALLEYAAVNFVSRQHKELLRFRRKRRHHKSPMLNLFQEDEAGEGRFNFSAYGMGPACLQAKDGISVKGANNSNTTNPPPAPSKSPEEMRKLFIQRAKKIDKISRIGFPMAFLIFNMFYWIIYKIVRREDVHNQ

[3] = target: T3, engineered receptor L131D, S172D in SEQ ID NO: 33 (human (chimera of human α7-nAChR ligand …))
T3 chain: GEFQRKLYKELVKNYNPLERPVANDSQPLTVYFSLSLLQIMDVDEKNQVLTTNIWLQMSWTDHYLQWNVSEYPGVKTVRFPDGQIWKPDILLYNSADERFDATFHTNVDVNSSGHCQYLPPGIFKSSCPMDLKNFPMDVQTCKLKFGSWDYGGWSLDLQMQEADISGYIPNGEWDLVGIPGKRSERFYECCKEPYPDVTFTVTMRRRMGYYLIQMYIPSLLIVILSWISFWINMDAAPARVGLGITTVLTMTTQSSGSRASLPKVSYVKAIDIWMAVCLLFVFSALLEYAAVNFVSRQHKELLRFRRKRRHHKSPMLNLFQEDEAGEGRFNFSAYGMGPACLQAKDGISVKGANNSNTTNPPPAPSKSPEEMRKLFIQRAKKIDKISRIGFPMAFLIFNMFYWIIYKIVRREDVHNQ

[4] = target: T4, engineered receptor L131T, S172D in SEQ ID NO: 33 (human (chimera of human α7-nAChR ligand …))
T4 chain: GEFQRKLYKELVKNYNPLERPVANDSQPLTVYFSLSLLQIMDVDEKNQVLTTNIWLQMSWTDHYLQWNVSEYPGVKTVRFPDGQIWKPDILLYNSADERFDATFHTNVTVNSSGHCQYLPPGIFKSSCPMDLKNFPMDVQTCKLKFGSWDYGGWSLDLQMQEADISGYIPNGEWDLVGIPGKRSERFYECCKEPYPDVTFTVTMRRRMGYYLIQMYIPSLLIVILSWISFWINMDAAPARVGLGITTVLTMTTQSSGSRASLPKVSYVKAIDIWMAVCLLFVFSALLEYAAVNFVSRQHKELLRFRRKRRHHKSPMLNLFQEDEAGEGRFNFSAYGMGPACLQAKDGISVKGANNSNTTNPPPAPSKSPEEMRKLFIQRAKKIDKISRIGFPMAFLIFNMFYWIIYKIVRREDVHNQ

[5] = target: T5, engineered receptor Y115D, S170T in SEQ ID NO: 33 (human (chimera of human α7-nAChR ligand …))
T5 chain: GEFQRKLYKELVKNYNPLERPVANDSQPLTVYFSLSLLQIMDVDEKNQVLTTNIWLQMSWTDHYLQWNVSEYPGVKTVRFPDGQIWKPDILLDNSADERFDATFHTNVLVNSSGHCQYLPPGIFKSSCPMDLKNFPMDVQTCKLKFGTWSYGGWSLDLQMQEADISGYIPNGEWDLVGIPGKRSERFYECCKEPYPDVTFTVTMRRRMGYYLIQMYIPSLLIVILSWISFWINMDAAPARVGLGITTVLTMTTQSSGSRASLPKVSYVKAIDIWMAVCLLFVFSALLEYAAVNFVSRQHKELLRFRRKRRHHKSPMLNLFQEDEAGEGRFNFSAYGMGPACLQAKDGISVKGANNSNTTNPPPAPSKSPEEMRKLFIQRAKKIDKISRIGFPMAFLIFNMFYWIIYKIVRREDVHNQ

[6] = target: T6, engineered receptor Y115D, L131Q in SEQ ID NO: 33 (human (chimera of human α7-nAChR ligand …))
T6 chain: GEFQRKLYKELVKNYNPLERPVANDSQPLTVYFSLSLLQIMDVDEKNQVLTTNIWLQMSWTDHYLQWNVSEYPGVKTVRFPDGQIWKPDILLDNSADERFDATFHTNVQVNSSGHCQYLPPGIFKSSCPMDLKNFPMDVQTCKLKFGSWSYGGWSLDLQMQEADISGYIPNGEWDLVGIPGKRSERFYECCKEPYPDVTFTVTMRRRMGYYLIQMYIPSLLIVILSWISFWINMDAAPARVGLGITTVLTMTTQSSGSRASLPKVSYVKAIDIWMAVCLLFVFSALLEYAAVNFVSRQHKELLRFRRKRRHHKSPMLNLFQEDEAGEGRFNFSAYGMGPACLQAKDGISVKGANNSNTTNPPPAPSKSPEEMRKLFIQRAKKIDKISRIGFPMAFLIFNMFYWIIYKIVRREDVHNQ

B1: α-bungarotoxin conjugated to Alexa Fluor 647 (ligand)
chain: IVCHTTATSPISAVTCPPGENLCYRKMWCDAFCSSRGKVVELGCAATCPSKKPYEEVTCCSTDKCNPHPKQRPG
Normalized AB MFI [1]: 0.83 ratio to SEQ ID NO: 33 control
Normalized AB % [2]: 73 % of α-bungarotoxin positive cells, normalized to SEQ ID NO: 33 control
Normalized AB MFI [2]: 0.9 ratio to SEQ ID NO: 33 control
Normalized AB % [3]: 45 % of α-bungarotoxin positive cells, normalized to SEQ ID NO: 33 control
Normalized AB MFI [3]: 0.88 ratio to SEQ ID NO: 33 control
Normalized AB % [4]: 32 % of α-bungarotoxin positive cells, normalized to SEQ ID NO: 33 control
Normalized AB MFI [4]: 0.75 ratio to SEQ ID NO: 33 control
Normalized AB % [5]: 17 % of α-bungarotoxin positive cells, normalized to SEQ ID NO: 33 control
Normalized AB MFI [5]: 0.64 ratio to SEQ ID NO: 33 control
Normalized AB % [6]: 35 % of α-bungarotoxin positive cells, normalized to SEQ ID NO: 33 control
Normalized AB MFI [6]: 0.72 ratio to SEQ ID NO: 33 control
